# Reference: patent US7098231B2, “Viral polymerase inhibitors” (Boehringer Ingelheim International GmbH, priority 2003, dated 2006)
# Sequences of proteins named here, by UniProt entry; tags and fusion partners are left off. Residues count along the entry.
# UniProt P26663, 2420-3010 limits assumed: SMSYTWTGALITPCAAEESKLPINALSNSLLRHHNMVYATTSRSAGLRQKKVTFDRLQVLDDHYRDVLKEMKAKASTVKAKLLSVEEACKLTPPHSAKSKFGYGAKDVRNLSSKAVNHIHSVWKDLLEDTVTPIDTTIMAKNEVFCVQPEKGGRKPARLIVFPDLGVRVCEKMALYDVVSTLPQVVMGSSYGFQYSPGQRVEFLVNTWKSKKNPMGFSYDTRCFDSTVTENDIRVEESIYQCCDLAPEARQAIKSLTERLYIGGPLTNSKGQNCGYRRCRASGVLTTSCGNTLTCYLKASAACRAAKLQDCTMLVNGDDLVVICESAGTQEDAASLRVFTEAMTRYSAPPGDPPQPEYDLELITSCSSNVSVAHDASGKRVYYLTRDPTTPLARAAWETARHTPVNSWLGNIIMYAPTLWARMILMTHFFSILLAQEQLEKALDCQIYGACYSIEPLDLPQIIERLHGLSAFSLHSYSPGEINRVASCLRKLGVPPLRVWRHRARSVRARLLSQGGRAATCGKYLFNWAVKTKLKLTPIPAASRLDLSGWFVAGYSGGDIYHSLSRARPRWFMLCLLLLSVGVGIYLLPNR
# Target: hepatitis C virus RNA dependent polymerase (NS5B) (Hepatitis C virus genotype 1b, UniProt P26663)
# Settings: Table 1; HCV NS5B polymerase
row,Structure (SMILES),IC50 [nM]
1,O=C(NS(=O)(=O)c1ccccc1)c1ccc2c(C3CCCCC3)c(-c3ccoc3)[nH]c2c1,< 1000
2,CS(=O)(=O)NC(=O)c1ccc2c(c1)nc(-c1ccccn1)n2C1CCCCC1,1000 to 20000
3,Cn1c(-c2cnccn2)c(C2CCCC2)c2ccc(C(=O)NS(=O)(=O)c3ccccc3)cc21,< 1000
4,O=C(NS(=O)(=O)c1ccccc1)c1ccc2c(c1)nc(-c1ccccn1)n2C1CCCC1,1000 to 20000
5,Cn1c(-c2cccc(N)n2)c(C2CCCC2)c2ccc(C(=O)NS(=O)(=O)c3ccccc3)cc21,< 1000
6,CS(=O)(=O)NC(=O)c1ccc2c(c1)nc(-c1ccoc1)n2C1CCCCC1,< 1000
7,O=C(NS(=O)(=O)C1CC1)c1ccc2c(C3CCCC3)c(-c3ccccn3)sc2c1,1000 to 20000
8,CS(=O)(=O)NC(=O)c1ccc2c(c1)nc(-c1ccoc1)n2C1CCCC1,1000 to 20000
9,Cn1c(-c2ccoc2)c(C2CCCCC2)c2ccc(C(=O)NS(=O)(=O)c3ccccc3)cc21,< 1000
10,O=C(NS(=O)(=O)c1ccccc1)c1ccc2c(c1)nc(-c1ccoc1)n2C1CCCCC1,< 1000
11,CC(C)S(=O)(=O)NC(=O)c1ccc2c(C3CCCCC3)c(-c3cnccn3)n(C)c2c1,< 1000
12,O=C(NS(=O)(=O)c1ccccc1)c1ccc2c(c1)nc(-c1ccccn1)n2C1CCCCC1,1000 to 20000
13,COc1ccc(OC)c(S(=O)(=O)NC(=O)c2ccc3c(c2)nc(-c2ccccn2)n3C2CCCC2)c1,< 1000
14,COc1ccc(OC)c(S(=O)(=O)NC(=O)c2ccc3c(c2)nc(-c2ccoc2)n3C2CCCCC2)c1,< 1000
15,Cn1c(-c2ccoc2)c(C2CCCC2)c2ccc(C(=O)NS(=O)(=O)C3CC3)cc21,< 1000
16,CCCS(=O)(=O)NC(=O)c1ccc2c(C3CCCC3)c(-c3cnccn3)oc2c1,1000 to 20000
17,Cc1c(-c2ccoc2)n(C2CCCC2)c2ccc(C(=O)NS(=O)(=O)c3ccccc3)cc12,< 1000
18,CS(=O)(=O)NC(=O)c1ccc2c(c1)nc(-c1ccccn1)n2C1CCCC1,1000 to 20000
19,Cc1c(-c2ccccn2)n(C2CCCC2)c2ccc(C(=O)NS(C)(=O)=O)cc12,1000 to 20000
20,COc1ccc(OC)c(S(=O)(=O)NC(=O)c2ccc3c(c2)nc(-c2ccccn2)n3C2CCCCC2)c1,1000 to 20000
21,CS(=O)(=O)NC(=O)c1ccc2c(C3CCCC3)c(-c3ccoc3)[nH]c2c1,< 1000
22,Cn1c(-c2ccccn2)c(C2CCCC2)c2ccc(C(=O)NS(C)(=O)=O)cc21,< 1000
23,COc1ccc(OC)c(S(=O)(=O)NC(=O)c2ccc3c(c2)nc(-c2ccoc2)n3C2CCCC2)c1,< 1000
24,Cn1c(-c2ccccn2)c(C2CCCC2)c2ccc(C(=O)NS(=O)(=O)N3CCN(Cc4ccccc4)CC3)cc21,1000 to 20000
25,CS(=O)(=O)NC(=O)c1ccc2c(C3CCCC3)c(-c3ccoc3)sc2c1,< 1000
